Compound potency records, mixed from different reports. Data source: NIAID ChemDB in PubChem.

Common to all: growth or infection tests; organism: Human cytomegalovirus

ECn is the concentration giving n% inhibition of infection, replication or growth.

compound,read by,endpoint,strain,cell line,result
CCCCCCCCCCCCCCCCCCOCCOP1(=O)CO[C@@H](Cn2ccc(N)nc2=O)CO1,plaque count,EC50,Coffman,MRC-5,0.002 µM
Nc1nc2c(ncn2COC(CO)CO)c(=O)[nH]1,plaque count,EC50,P8 (DHPG-S),,3.2 µM
O=C(NCc1ccc(Cl)cc1)c1c[nH]c2ccc(C#CCO)cc2c1=O,plaque count,EC50,759rD100,,0.1 µM
CC(C)Nc1nc2cc(Cl)c(Cl)cc2n1[C@H]1O[C@@H](CO)[C@H](O)[C@@H]1O,virus yield,EC50,C4 (BDCRB-resistant),HFF,<2.9 µM
NC(=O)c1c(Cl)c(-c2cccnc2)n2c1CCCC2,plaque count,EC50,Foscarnet-resistant,HEL,0.12 µM
O=C(NCc1ccc(Cl)cc1)c1c[nH]c2ccc(CCCO)cc2c1=O,plaque count,EC50,DAVIS,,0.3 µM
Nc1ccn(C[C@@H](CO)OCP(=O)(O)O)c(=O)n1,plaque count,EC50,VR4955 (foscarnet-resistant),HFF,0.95 µM
O=C(O)P(=O)(O)O,plaque count,EC50,PC92 (ganciclovir- foscarnet-susceptible),MRC-5,114 µM
Nc1nc2c(ncn2COC(CO)CO)c(=O)[nH]1,hybridisation,EC50,1038RB (ASP344GLU AND ALA355VAL),MRC-5,0.24 µM
OC[C@H]1O[C@@H](n2c(Br)nc3cc(Cl)c(Cl)cc32)[C@H](O)[C@@H]1O,plaque count,EC50,R56 (BDCRB- maribavir-resistant),HFF,8.8 µM
Nc1nc2c(ncn2COC(CO)CO)c(=O)[nH]1,plaque count,EC75,PAAR,MRC-5,7.44 µM
OC[C@H]1O[C@@H](n2c(Br)nc3cc(Cl)c(Cl)cc32)[C@H](O)[C@@H]1O,plaque count,EC50,C4 (D341E),,33 µM
Nc1nc2c(ncn2COC(CO)CO)c(=O)[nH]1,plaque count,EC50,1117 3-1-2 (CDV-resistant),,48.3 µM
Nc1cccc2c1C(=O)N(C1C3CC4CC(C3)CC1C4)C2=O,plaque count,EC50,AD169,HEL,>100 µg/mL
CN(C)c1cccc2c(S(=O)(=O)Nc3ccc(NC(=O)C(C)(C)CO)cc3)cccc12,plaque count,EC50,TOWNE,HFF,1.3 µM
CC(C)Nc1nc2cc(Cl)c(Cl)cc2n1[C@H]1O[C@@H](CO)[C@H](O)[C@@H]1O,virus yield,EC50,2916 (bdcrb maribavir-resistant),HFF,57 µM
CCCCCCCCCCCCCCCCCCOCCOP(=O)(O)CO[C@H](CO)Cn1ccc(N)nc1=O,plaque count,EC50,DAVIS,MRC-5,0.0009 µM
Nc1nc2c(ncn2C[C@@H]2CC[C@@H](P(=O)(O)O)O2)c(=O)[nH]1,plaque count,EC50,4760RECPOLA1-1-1 (foscarnet-resistant),HFF,0.2 µg/mL
Nc1nc2c(ncn2C=C2CC2CO)c(=O)[nH]1,plaque count,EC50,VR4991 (ganciclovir-resistant),,1.1 µM
Nc1nc2c(ncn2C=C2CC2CO)c(=O)[nH]1,plaque count,EC50,C8708/17-1-1,HFF,9.4 µM
O[C@@H]1[C@H](O)[C@H](O)CO[C@H]1n1c(Br)nc2cc(Cl)c(Cl)cc21,plaque count,EC50,RCMP97 (drug-resistant),HFF,2.3 µM
O=C(NCc1ccc(Cl)cc1)c1c[nH]c2ccc(CCCO)cc2c1=O,plaque count,EC50,SCH,,0.7 µM
Nc1ccn(C[C@H]2COP(=O)(O)CO2)c(=O)n1,plaque count,EC50,759D100 drug-resistant mutant,MRC-5,2.5 µM
COc1nc(N)nc2c1ncn2C=C1CC1CO,cytopathic effect,EC50,AD169,HFF,1.5 µM
OC[C@H]1O[C@@H](n2c(Br)nc3cc(Cl)c(Cl)cc32)[C@H](O)[C@@H]1O,plaque count,EC50,VR4955R (drug-resistant),HFF,2.8 µM
Nc1ccn(C[C@@H](CO)OCP(=O)(O)O)c(=O)n1,plaque count,EC75,PC92 (ganciclovir- foscarnet-susceptible),MRC-5,0.61 µM
CCCCCCCC/C=C\CCCCCCCOCCCOP(=O)(O)CO[C@H](CO)Cn1ccc(N)nc1=O,plaque count,EC50,759rD100,HFF,0.01 µM
Nc1ccn(C[C@@H](CO)OCP(=O)(O)O)c(=O)n1,plaque count,EC50,DAVIS,HEL,0.33 µg/mL
OC[C@@H]1O[C@@H](n2c(Cl)nc3cc(Cl)c(Cl)cc32)[C@H](O)[C@@H]1O,virus yield,EC90,TOWNE,HFF,5.8 µM
Nc1nc2c(ncn2COC(CO)CO)c(=O)[nH]1,plaque count,EC50,C8805-37 (ganciclovir-resistant),MRC-5,12 µg/mL
CC(C)Nc1nc2cc(Cl)c(Cl)cc2n1[C@H]1O[C@@H](CO)[C@H](O)[C@@H]1O,hybridisation,EC50,C8301,MRC-5,0.04 µM
Nc1nc(NC2CC2)c2ncn(C=C3CC3CO)c2n1,plaque count,EC50,C8805/37-1-1,HFF,10.3 µM
O=C1c2ccccc2C(=O)N1CC12CC3CC(CC(O)(C3)C1)C2,plaque count,EC50,AD169,HEL,>20 µg/mL
Nc1nc2c(ncn2COC(CO)CO)c(=O)[nH]1,plaque count,EC50,EC,HFF,9.7 µM
CCCCCCCCCCCCOCCCOP(=O)(O)CO[C@H](CO)Cn1ccc(N)nc1=O,plaque count,EC50,1117-R,HFF,0.06 µM
COC(=O)C12CC3CC(C1)CC(N1C(=O)c4ccccc4C1=O)(C3)C2,plaque count,EC50,AD169,HEL,>20 µg/mL
COc1cccc(N2CCN(C3=Nc4c(F)cccc4[C@H](CC(=O)O)N3c3cc(C(F)(F)F)ccc3OC)CC2)c1,plaque count,EC50,rGCV-2,,0.0016 µM
O=C(O)P(=O)(O)O,plaque count,EC50,DER521 (ganciclovir cidofovir-resistant),HEL,77 µM
CCCCCCCC/C=C\CCCCCCCCOCCOP(=O)(O)CO[C@H](CO)Cn1ccc(N)nc1=O,plaque count,EC50,Toledo,HFF,0.001 µM
Nc1ccn(C[C@H]2COP(=O)(O)CO2)c(=O)n1.O=C(O)P(=O)(O)O,plaque count,EC75,Towne (ganciclovir- foscarnet-susceptible),MRC-5,0.81 µM

The last 3 rows once more:

compound | read by | endpoint | strain | cell line | result
O=C(O)P(=O)(O)O | plaque count | EC50 | DER521 (ganciclovir cidofovir-resistant) | HEL | 77 µM
CCCCCCCC/C=C\CCCCCCCCOCCOP(=O)(O)CO[C@H](CO)Cn1ccc(N)nc1=O | plaque count | EC50 | Toledo | HFF | 0.001 µM
Nc1ccn(C[C@H]2COP(=O)(O)CO2)c(=O)n1.O=C(O)P(=O)(O)O | plaque count | EC75 | Towne (ganciclovir- foscarnet-susceptible) | MRC-5 | 0.81 µM

Conditions beyond the fields shown may differ between rows. Blank or dashed fields: not listed here.